# Where two headings read alike, the source gives them in different places.
# Assays:
# [1] = tested on: SARS-CoV-2 USA_WA1/2020 strain; assay type: cell-based; conditions: Vero 76 cells
# [2] = tested on: SARS-CoV-2 USA_WA1/2020 strain; assay: Activity against SARS-CoV-2 in Vero E6 cells (cytopathic effect, visual and neutral red); assay type: cell-based
# [3] = Neutral red (Cytopathic effect/Toxicity)
# [4] = Visual (Cytopathic effect/Toxicity)
SMILES,"SI50 [1, 3]","SI50 [1, 4]","SI50 [2, 3]","SI50 [2, 4]"
"Nc1ncnn2c([C@@H]3O[C@H](CO)[C@@H](O)[C@H]3O)cc(/C=C/c3ccc(C(F)(F)F)cc3)c12 [Compound 4.2e, 7-((E)-4-(Trifluoromethyl)styryl)-4-aza-7,9-dideazaadenosine]",0,0,–,–
"Nc1ncnn2c([C@@H]3O[C@H](CO)[C@@H](O)[C@H]3O)cc(/C=C/C3CCCCC3)c12 [Compound 4.2l, 7-((E)-2-Cyclohexylvinyl)-4-aza-7,9-dideazaadenosine]",–,–,0,0
"Nc1ncnn2c([C@@H]3O[C@H](CO)[C@@H](O)[C@H]3O)cc(/C=C/C3CCCC3)c12 [Compound 4.2i, 7-((E)-2-Cyclopentylvinyl)-4-aza-7,9-dideazaadenosine]",–,–,0,0
"Nc1ncnn2c([C@@H]3O[C@H](CO)[C@@H](O)[C@H]3O)cc(/C=C/c3cccc(F)c3)c12 [Compound 4.2g, 7-((E)-3-Fluorostyryl)-4-aza-7,9-dideazaadenosine]",–,–,0,0
"CCC/C=C/c1cc([C@@H]2O[C@H](CO)[C@@H](O)[C@H]2O)n2ncnc(N)c12 [Compound 4.2m, 7-((E)-pent-1-en-1-yl)-4-aza-7,9-dideazaadenosine]",–,–,0,0
"C=Cc1cc([C@@H]2O[C@H](CO)[C@@H](O)[C@H]2O)n2ncnc(N)c12 [Compound 4.2a, 7-Vinyl-4-aza-7,9-dideazaadenosine]",29,>32,–,–
"Cc1ccc(/C=C/c2cc([C@@H]3O[C@H](CO)[C@@H](O)[C@H]3O)n3ncnc(N)c23)cc1 [Compound 4.2c, 7-((E)-4-Methylstyryl)-4-aza-7,9-dideazaadnosine]",150,100,–,–
"Nc1ncnn2c([C@@H]3O[C@H](CO)[C@@H](O)[C@H]3O)cc(/C=C/c3ccc(F)cc3)c12 [Compound 4.2d, 7-((E)-4-Fluorostyryl)-4-aza-7,9-dideazaadenosine]",0,0,–,–
"Nc1ncnn2c([C@@H]3O[C@H](CO)[C@@H](O)[C@H]3O)cc(/C=C/c3ccc(Cl)cc3)c12 [Compound 4.2f, 7-((E)-4-Chlorostyryl)-4-aza-7,9-dideazaadenosine]",–,–,0,0
"Nc1ncnn2c([C@@H]3O[C@H](CO)[C@@H](O)[C@H]3O)cc(/C=C/c3ccsc3)c12 [Compound 4.2k, 7-((E)-2-(Thiophen-3-yl)vinyl)-4-aza-7,9-dideazaadenosine]",–,–,0,0
"Nc1ncnn2c([C@@H]3O[C@H](CO)[C@@H](O)[C@H]3O)cc(/C=C/c3cccs3)c12 [Compound 4.2j, 7-((E)-2-(Thiophen-2-yl)vinyl)-4-aza-7,9-dideazaadenosine]",–,–,0,0
"O=c1nc(NO)ccn1[C@@H]1O[C@H](CO)[C@@H](O)[C@H]1O [EIDD-1931, β-D-N^4-Hydroxycytidine, reference compound]",–,–,73,190
"Nc1ncnn2c([C@@H]3O[C@H](CO)[C@@H](O)[C@H]3O)cc(/C=C/c3ccccn3)c12 [Compound 4.2b, 7-((E)-2-(Pyridin-2-yl)vinyl)-4-aza-7,9-dideazaadenosine]",>3.2,0,–,–
"Nc1ncnn2c([C@@H]3O[C@H](CO)[C@@H](O)[C@H]3O)cc(/C=C/C3CC3)c12 [Compound 4.2h, 7-((E)-2-Cyclopropylvinyl)-4-aza-7,9-dideazaadenosine]",–,–,0,0

# Reference: patent US20250066365A1, “Ribonucleoside Analogues Against -Sars-Cov-2” (priority 2021, published 2025)
